# Results of single-concentration screens

Measurements from “University of Dundee, Small-Polar-MMV Screening Library” (2021), ChEMBL document CHEMBL3988442.

The filed quantity is “Percent Effect” (%). The controls that fix the scale are not given in the record; negative values are as filed. The entries come from a sample that favours strong results.

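Phenotypic screen: M. tuberculosis growth, cholesterol and DPPC medium, 4 days; the read-out is not stated. Tested at 500 µM. Direction is inferred from retests: higher values go with more growth inhibition. About 18,000 compounds were tested under these conditions; 5% (about 900) showed 50% or more at least once.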

Compound	effect
C=C(C)CSc1nnnn1Cc1ccco1	74.03%
CNS(=O)(=O)c1csc(C(=O)N(CC(F)F)C2CC2)c1	9.916%
COC(=O)c1cnc(CO)cn1	-10.32%
CN(C)S(=O)(=O)NC1CCCOc2c(Cl)cccc21 (stereo not drawn)	20.97%
Cc1cc(C)c2c(N[C@@H]3CC[C@@H](N)C3)ncnc2n1	-12.56%
OCC1(O)CCCN(c2ccnc3ccc(Cl)cc23)C1 (stereo not drawn)	-6.56%
Cn1c(=O)n(C)c2cc(CNCCOCCO)ccc21	16.91%
CC(CO)N1CCCN(c2cccc(C#N)n2)CC1 (stereo not drawn)	-2.616%
NCCS(=O)(=O)NCc1ccc(F)cc1	0.06336%
NC(=O)C1CCCN(C(=O)c2sccc2Br)C1 (stereo not drawn)	-26.93%
CC(O)(CNC1CCC2(CC1)OCCO2)c1ccsc1 (stereo not drawn)	-9.485%
O=C(NCCO)NC1CCOc2ccccc21 (stereo not drawn)	-2.035%
COCCNC(=O)c1ccc(N2CCCC(O)C2)nc1 (stereo not drawn)	-1.043%
Cc1ccc(C(=O)NCc2ccnc(N(C)C)c2)s1	52.07%
CN(Cc1cccc(O)c1)C(=O)c1cc[nH]n1	8.565%
Clc1ccc(-c2noc(CN3CCCNCC3)n2)cc1	73.38%
COc1cccc(S(=O)(=O)CCN2CCC(O)CC2)c1	33.11%
CC(C)c1nnc[nH]1	-8.375%
COc1cccc(-c2ncc(CN)s2)c1	71.93%
CCNC(=O)CN(c1ccc(Cl)cc1C)S(C)(=O)=O	8.604%
CC(C)CN1CCN(C(=O)CN2CCOCC2)CC1	-0.682%
CN(Cc1ccc(F)c(F)c1)C(=O)C1CCOCC1	40.24%
CC(c1cccnc1)N(C)C(=O)c1nccn1C (stereo not drawn)	-0.7102%
Cc1n[nH]c(C)c1S(=O)(=O)N1CCC2(CCNCC2)C1	14.19%
COc1ccc(C(CN)CO)cc1 (stereo not drawn)	4.295%
N#CCCN(CCC#N)Cc1cc[nH]n1	-14.01%
CCOC(=O)C1CCN(C(=O)c2nccnc2N)CC1	7.321%
O=S(=O)(NCc1ccncc1)c1cccc2nonc12	-2.436%
Cc1cc(=O)[nH]c(C2(N)CCCC2)n1	-2.848%
CN(CC(=O)N1CCOCC1)Cc1ccc(Br)o1	14.95%
COc1ccc(N2C(=O)C=CC2=O)cc1OC	-21.88%
CCC(CNC(=O)c1ccncc1)N1CCCC1 (stereo not drawn)	-9.663%
CC(C)(C)NCCNC(=O)CC1(O)CCCC1	-0.5085%
COc1cc(C(=O)NCCC(C)C)cc(OC)c1OC	-2.821%
COc1cccc(C2CNCCO2)c1 (stereo not drawn)	39.11%
CC(=O)c1ccc(C(=O)NCC(C)N2CCCC2)s1 (stereo not drawn)	8.656%
CCNC(=O)CN(CC)CC(=O)Nc1cc(C)no1	7.429%
Cc1cc(C(=O)N2CCN(C)C(=O)C2(C)C)c(C)o1	-5.642%
CCN1CCN(C(C)c2nc(C)no2)CC1 (stereo not drawn)	6.815%
CN1CCCN(C(=O)c2ccc(F)cc2)CC1	-6.885%
COc1cc(CNc2ccc(CO)cn2)cc(OC)c1	41.4%
CN1CCc2nc(NC(=O)CC(C)(C)C)sc2C1	53.16%
Cc1cccc(C(=O)NCC(C)N2CCCC2)n1 (stereo not drawn)	14.26%
NCc1ccc(N2CCC(O)CC2)cc1	9.731%
Cc1ccc2oc(CNC(C)(CO)CO)cc2c1	6.262%
CCN1CCCC1CNC(=O)c1cccc(C)n1 (stereo not drawn)	1.458%
NS(=O)(=O)N1CCC(NC(=O)CC2CCCCC2)CC1	1.625%
O=C1C=CC(=O)N1Cc1ccc(Cl)cc1	113.7%
COC(=O)c1ccc(CSc2n[nH]c(C)n2)o1	69.04%
Cc1c(C(=O)NCc2ccnc(N(C)C)c2)cnn1C	2.441%
C1CCN(CCOC2CCNC2)C1 (stereo not drawn)	-16.66%
Cc1cnc(C)c(N2CCC3(CC2)CNC(=O)C3)n1	-7.232%
O=C(NCCC(O)C(F)(F)F)c1c(O)cc(F)cc1F (stereo not drawn)	77.88%
COc1cccc(F)c1N1CCNCC1	7.133%
CC(CO)OCCc1ccccc1 (stereo not drawn)	11.4%
CCc1nc(CN(C)C(=O)c2cccnc2O)cs1	0.3997%
COc1ccc(OC)c(NC(=O)C(C)C)c1	34.26%
Cn1c(C2CC2)nc2cc(CN)ccc21	-4.52%
COC(=O)CC1CN(CCc2ccccn2)CCO1 (stereo not drawn)	-2.079%
CCCn1cc(C(=O)N2CCN(CCO)CC2)c(C)n1	-4.571%
Cc1nc(CCSc2nnc(C)n2CC(N)=O)cs1	-1.036%
CC(C)C(CCO)NC(=O)c1nccc2ccccc12 (stereo not drawn)	0.9315%
Cc1cc(C)c(S(=O)(=O)NCCO)c(C)c1	-10.19%
O=C(NCCO)c1cc2c(F)cc(Br)cc2[nH]1	58.72%
CCCC(N)CNS(=O)(=O)c1c(C)nn(C)c1C (stereo not drawn)	13.6%
CN1CCC(N2CCN(C)c3ccccc3C2)C1=O (stereo not drawn)	17.12%
c1ccc(COCCc2noc(C3CNC3)n2)cc1	112.2%
CNC(=O)CCN1CCSC2(CCCCC2)C1	20.32%
NC(=O)Cc1ccc(NC(=O)CC(F)(F)F)cc1	-31.88%
NC(=O)C(N)c1ccc2c(c1)OCCO2 (stereo not drawn)	63.41%
CC(CN[C@@H](C)CO)c1ccccc1 (stereo partly drawn)	4.932%
CCC1C(=O)NCCN1C(=O)Nc1cccc(C)n1 (stereo not drawn)	4.032%
CCn1ccc(C(=O)NCc2ccco2)n1	67.85%
N[C@H]1CN(S(=O)(=O)c2cccc(Cl)c2)C[C@@H]1C1CC1	50.92%
CCOC(=O)Nc1ccc(-n2cnnn2)cc1OC	2.527%
COc1cc(-c2nc(CN)no2)cc(OC)c1OC	7.73%
NC(=O)CN1CCCC1CCc1ccccc1 (stereo not drawn)	16.83%
CC1CC(C)(C)NC1=O (stereo not drawn)	-2.183%
CN(CC(=O)NCc1ccccn1)S(C)(=O)=O	-21.85%
O=S(=O)(CCN1CCC(CO)CC1)c1ccc(Cl)cc1	23.61%
Cn1cc(CN)c(C(F)(F)F)n1	-3.417%
CC(C)(C)OC(=O)n1cc(N)cn1	7.343%
O=C1CCN(C(=O)c2sccc2Br)CCN1	-3.731%
Nc1ccn(-c2ccc(C(F)(F)F)cn2)n1	-1.129%
CCn1ncnc1C(C)NC(=O)CN1CCCC1 (stereo not drawn)	-5.329%
COc1cccc(CN(C)C(=O)c2cc[nH]n2)n1	5.392%
CN(C)C(=O)c1ccc(CN)cc1	-6.061%
COc1cccc(N2CCCC(N)C2)c1 (stereo not drawn)	19.24%
Cn1cc(C(=O)NC2CCCOc3ccccc32)nn1 (stereo not drawn)	-1.92%
Cc1cc(NC(=O)CN2CCC(CO)CC2)n(C)n1	4.13%
OCCn1c(CO)nc2ccccc21	11.31%
O=C(NCCN1CCNCC1)c1ccco1	-16.24%
CC[C@H](O)CN(CCNC(C)=O)C(C)C	-6.282%
CCOCCc1nnc(N)s1	0.007434%
COC(=O)CC1NCCNC1=O (stereo not drawn)	0.2109%

Once more, the final 7:

Compound	effect
Cn1cc(C(=O)NC2CCCOc3ccccc32)nn1 (stereo not drawn)	-1.92%
Cc1cc(NC(=O)CN2CCC(CO)CC2)n(C)n1	4.13%
OCCn1c(CO)nc2ccccc21	11.31%
O=C(NCCN1CCNCC1)c1ccco1	-16.24%
CC[C@H](O)CN(CCNC(C)=O)C(C)C	-6.282%
CCOCCc1nnc(N)s1	0.007434%
COC(=O)CC1NCCNC1=O (stereo not drawn)	0.2109%